This series can be described thus: VIT-30 safety: composite cardiovascular endpoint and adverse events. The format is in vivo. As for the experimental part:
The following example describes a randomized, active controlled trial of subjects with iron deficiency anemia and non-dialysis dependent chronic kidney disease and elevated cardiovascular risk who received either FCM (750 mg on Day 0 and Day 7 for a total of 1500 mg) or iron sucrose (Venofer; 200 mg on 5 visits between Days 0 and 14 for a total of 1000 mg). Study visits were on Days 0, 3, 7, 10, 14, 28, 56, and 120. A phone assessment occurred on Day 90. The primary objective was to estimate the cardiovascular safety and efficacy FCM compared to Venofer in subjects who had iron deficiency anemia (IDA) and impaired renal function.
VIT-30 was a Phase 3, multicenter, randomized, active-controlled, open-label study that compared the safety and efficacy of IV FCM vs. IV Venofer in subjects with IDA and impaired renal function. […]
Safety assessments were summarized for the Safety Population unless stated otherwise. Subjects were analyzed under the treatment actually received.
The difference between FCM and Venofer in the proportion of subjects experiencing the primary composite endpoint was assessed with a 95% 2-sided CI constructed with the normal approximation to the binomial with continuity correction. […] The precision of the estimated treatment group difference was measured by the width of the 95% CI. […]

In the case of “polynuclear iron (III)-hydroxide 4(R)-(poly-(1→4)-O-α-glucopyranosyl)-oxy-2(R),3(S),5(R),6-tetrahydroxy-hexanoate [FCM]”, for the setting “10 subjects”, the “subjects with at least 1 event of the composite safety endpoint in addition to a protocol-defined hypertensive event” value was determined as 10.5%. For the same substance, the “subjects with primary composite safety endpoint events excluding protocol-defined hypertensive or hypotensive events” value (in vivo) came out at 5.49%.
